# PubChem BioAssay AID504761, Drosophila RNAi Screening Center, 2011
# Screen: 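Insect host genes that dengue virus relies on to spread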 (primary screen)
# System: D.Mel-2 cells from Drosophila
# Reagent: long dsRNA against Drosophila genes
# Conditions: infection with dengue virus type 2; dose and infection time not stated
# Measurement: 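Per well on two replicate plates, imaging gave the percent of cells positive for viral envelope protein, ranked by infection, and a nuclear count of cells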
# Direction: infection score: higher = more virus-infected cells; cell count: higher = more cells in the well
# Call rule: 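Very low infection ranking in both replicate wells (chance probability at most 0.065), then a retest showing infection dropped 1.5-fold or more at p below 0.05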
# Meaning of the calls: active = confirmed: knock-down lowers infection; inactive = not picked or not confirmed
# The deposit covers about 22,000 reagents; shown is a random part of those that have a named target and a result. In the full data, 116 (0.52%) got an active call. 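Calls depend on retest data that are not deposited; infection was ranked per plate without normalising between plates; the unit of the infection score is not given.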 Raw values are not corrected between plates. Entries without a mark were called inactive. Reagent sequences are not shown. The record does not give: the amount of reagent, the time to read-out.
predicted target,amplicon,"infection score, replicate 1","infection score, replicate 2","cell count, replicate 1","cell count, replicate 2"
Arl2 (ADP ribosylation factor-like 2),DRSC14117,7.81,3.58,6708,6787
Rpp25 (Ribonuclease P/MRP subunit p25),DRSC05002,8.11,4.48,6206,6809
GCS1 (Glucosidase 1),DRSC19744,5.49,1.97,5815,6386
GCS1 (Glucosidase 1),DRSC25625,7.11,8.43,6523,6321
elg1 (enhanced level of genomic instability 1),DRSC10229,6.39,7.67,6289,6424
elg1 (enhanced level of genomic instability 1),DRSC27844,13.2,30.4,5428,4097
CG14185,DRSC10184,2.69,3.39,6941,6315
CG4459,DRSC15582,6.34,1.63,5927,5705
a5 (antennal protein 5),DRSC00798,1.34,6.59,6469,6953

2 entries from above, arranged by “cell count, replicate 2”, high to low:
predicted target,amplicon,"infection score, replicate 1","infection score, replicate 2","cell count, replicate 1","cell count, replicate 2"
CG14185,DRSC10184,2.69,3.39,6941,6315
CG4459,DRSC15582,6.34,1.63,5927,5705

More results follow.
predicted target,amplicon,"infection score, replicate 1","infection score, replicate 2","cell count, replicate 1","cell count, replicate 2"
CG10164,DRSC14197,11.2,1.18,6328,7270
mael (maelstrom),DRSC11894,9.37,3.97,2850,6705
Tspo (Translocator protein),DRSC00533,2.39,1.39,6069,6705
CG14495,DRSC06466,13.3,21,6473,6056
asl (asterless),DRSC12319,2.88,15.4,6900,5704
Cam (Calmodulin),DRSC07353,2.65,5.39,6495,6792
Cam (Calmodulin),DRSC07354,,6.96,477,6096
CG18581,DRSC10324,7.33,0.24,6114,7152
CG8369,DRSC16413,3.55,9.33,5921,6366
CG14937,DRSC02419,9.99,6.61,6495,6561
CG16713,DRSC00477,3.13,1.8,6846,6818
Cyp18a1 (Cytochrome P450 18a1),DRSC20235,3.82,2.09,3245,4633
Cyp18a1 (Cytochrome P450 18a1),DRSC27063,10.6,7.5,6711,6636
CG15362,DRSC00392,10.7,2.62,6897,6669
